Results of unrelated studies side by side (data: NIAID ChemDB).

All rows: host cell toxicity; cell line: Vero mammalian cells; read by: MTT; endpoint: CC50

CCn is the concentration with n% toxicity to the cells. Rows are shuffled and stem from different studies.

compound	result
CC(C)(C)n1cc(C(=O)O)c(=O)c2cc([N+](=O)[O-])c(N3CCC(O)(c4ccc(Cl)cc4)CC3)cc21	>117.5 µM
COc1c(N2CCN(C(=O)C3COc4ccccc4O3)CC2)c(F)cc2c(=O)c(C(=O)O)cn(C3CC3)c12	119 µM
CCN(CC)C(=O)C1CCCN(c2cc3c(cc2[N+](=O)[O-])c(=O)c(C(=O)O)cn3C(C)(C)C)C1	140 µM
COc1c(N2CCNC(C)C2)c(F)cc2c(=O)c(C(=O)O)cn(C3CC3)c12	>155.3 µM
O=C(O)c1cn(C2CC2)c2cc(N3CCC(N4CCCCC4)CC3)c(F)cc2c1=O	>151.1 µM
COc1c(N2CCN(Cc3ccc4c(c3)OCO4)CC2)c(F)c([N+](=O)[O-])c2c(=O)c(C(=O)O)cn(C3CC3)c12	116 µM
O=C(O)c1c(=O)c2cc(F)c(N3CCN(C(=O)C4COc5ccccc5O4)CC3)cc2n2c1sc1ccccc12	111.7 µM
COc1c(N2CCC3(CC2)OCCO3)c(F)c([N+](=O)[O-])c2c(=O)c(C(=O)O)cn(C3CC3)c12	135 µM
CN1CCN(c2cc3c(cc2F)c(=O)c(C(=O)O)cn3C(C)(C)C)CC1c1ccccc1	142.9 µM
O=C(O)c1c(=O)c2cc([N+](=O)[O-])c(N3CCC4(CC3)OCCO4)cc2n2c1sc1ccccc12	129.8 µM
COc1c(N2CCN(C(c3ccccc3)c3ccc(Cl)cc3)CC2)c(F)c([N+](=O)[O-])c2c(=O)c(C(=O)O)cn(C3CC3)c12	103 µM
CC1COc2c(N3CCSCC3)c(F)c([N+](=O)[O-])c3c(=O)c(C(=O)O)cn1c23	153 µM
CC(C)(C)n1cc(C(=O)O)c(=O)c2cc([N+](=O)[O-])c(N3CCn4cc(C(=O)O)nc4C3)cc21	145.9 µM
CC1CN(c2c(F)cc3c(=O)c(C(=O)O)cn4c3c2OC[C@@H]4C)CC(C)O1	>166 µM
O=C(O)c1cn2c(n1)CN(c1cc3c(cc1F)c(=O)c(C(=O)O)c1sc4ccccc4n13)CC2	>130.6 µM
COc1cc2c(cc1OC)CN(c1c(F)cc3c(=O)c(C(=O)O)cn4c3c1OCC4C)CC2	>138 µM
COC1CCN(c2cc3c(cc2[N+](=O)[O-])c(=O)c(C(=O)O)cn3C2CC2)CC1OC	>117.5 µM
O=C(O)c1c(=O)c2cc([N+](=O)[O-])c(N3CCN(Cc4ccc5c(c4)OCO5)CC3)cc2n2c1sc1ccccc12	111.9 µM

2 of the rows above, restated:

compound	result
COC1CCN(c2cc3c(cc2[N+](=O)[O-])c(=O)c(C(=O)O)cn3C2CC2)CC1OC	>117.5 µM
CC(C)(C)n1cc(C(=O)O)c(=O)c2cc([N+](=O)[O-])c(N3CCC(O)(c4ccc(Cl)cc4)CC3)cc21	>117.5 µM